Construct, isoform or probe ends are uncertain for at least one entry. For some assays here: No signal at the amounts used counts as a negative. For some assays here: A weaker result is weaker than the reference pair of the same experiment. For some assays here: Tags and fusion partners may be left off the protein sequences shown.
Columns and labels:
[1] = test system: T1, LugJ (Staphylococcus lugdunensis IVK28); assay: EMSA; details: 10 mM Tris/HCl pH 7.4, 10 mM NaCl (LugJ) or 100 mM NaCl (LugR), 0.1 mg/mL BSA, 1 mM DTT, 1 mM EDTA, 10% glycerol, 30 min at 25 C, 20 ul, 5% native PAGE, recombinant protein, protein details: 8xHis (N-terminal, pET-28a derived), label: 5' DY-781 (both primers), probe letters rebuilt from the primers and the genome
T1 sequence (looked up, limits assumed): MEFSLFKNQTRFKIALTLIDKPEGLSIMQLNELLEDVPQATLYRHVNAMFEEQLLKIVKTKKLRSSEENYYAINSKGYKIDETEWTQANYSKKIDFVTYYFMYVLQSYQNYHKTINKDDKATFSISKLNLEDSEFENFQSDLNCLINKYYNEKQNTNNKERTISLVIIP

[2] = biological target: T2, LugR (Staphylococcus lugdunensis IVK28) (UniProt A0A292DID1); assay: competition with a labelled probe; details: 2 uM LugR, 50 or 100 ng competitor vs PlugR; 10 mM Tris/HCl pH 7.4, 10 mM NaCl (LugJ) or 100 mM NaCl (LugR), 0.1 mg/mL BSA, 1 mM DTT, 1 mM EDTA, 10% glycerol, 30 min at 25 C, 20 ul; 5% native PAGE; recombinant protein; protein details: 8xHis (N-terminal, pET-28a derived)
T2 sequence (looked up, limits assumed): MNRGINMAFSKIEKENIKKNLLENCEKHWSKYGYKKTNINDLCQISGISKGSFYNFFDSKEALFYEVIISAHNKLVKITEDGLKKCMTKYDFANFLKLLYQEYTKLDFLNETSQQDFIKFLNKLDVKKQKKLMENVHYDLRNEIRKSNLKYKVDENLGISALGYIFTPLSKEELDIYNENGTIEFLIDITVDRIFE

[3] = test system: T1, LugJ (Staphylococcus lugdunensis IVK28); assay: competition with a labelled probe; details: 10 mM Tris/HCl pH 7.4, 10 mM NaCl (LugJ) or 100 mM NaCl (LugR), 0.1 mg/mL BSA, 1 mM DTT, 1 mM EDTA, 10% glycerol, 30 min at 25 C, 20 ul, 5% native PAGE, recombinant protein, protein details: 8xHis (N-terminal, pET-28a derived)
[4] = 2 uM LugJ, 50 or 100 ng competitor vs PlugI

Sequence: ACATAACACCTCACTTTATACATAATAATTGATTTTTAAATAAATGTACAGTAACATTATCATTATCAATAATGATAATGGAGGGTGAAAATG (double strand) [PlugI promoter fragment]
- binding result ([1]; lugdunin 1-20 uM, dose-dependent release, almost complete at molar excess): binds more weakly

Sequence: GATAAAAGTTTATTTGGTCATGACTAGAAAAATAAATGAATAG (double strand) [PallugR scram1]
- binding result [2]: binds more weakly

Sequence: CAATGTAAATGTAGTATAAAATCCACAATAGAATATTCTTATTATTAGAAGATTAGTTGACAAAATATTTTATTCTTTATCTTTAGAGATGTAATAGACACAATAAAGAAAAATCAATATTTTAAAAAATATTCGCTTAATATAGTTGACATATTAATTAAATAGATTAAGATAAAAGTGACTAGAAAAATTTATTTGGTCATAAATGAATAGGGGTATTAAT (double strand) [PlugR promoter fragment]
- binding result [1]: no binding

Sequence: GTACAGTAACATTATCATTATCAATAATGATAATGGAGGGTG (double strand) [PallugI native]
- binding result [3, 4]: binds

Sequence: GATAAAAGTTAATTGTATAGCTTAATAGATTATAAATGAATAG / CTATTCATTTATTAACTATTTAGCTTTACAAATTACTTTTATC [PallugR scram2]
- binding result [2]: binds more weakly

Sequence: GTACAGTAAATAATGATAATGCACATTATCATTATGAGGGTG (double strand) [PallugI scram1]
- binding result [3, 4]: no binding

Sequence: CAATGTAAATGTAGTATAAAATCCACAATAGAATATTCTTATTATTAGAAGATTAGTTGACAAAATATTTTATTCTTTATCTTTAGAGATGTAATAGACACAATAAAGAAAAATCAATATTTTAAAAAATATTCGCTTAATATAGTTGACATATTAATTAAATAGATTAAGATAAAAGTGACTAGAAAAATTTATTTGGTCATAAATGAATAGGGGTATTAAT (double strand) [cold PlugR]
- binding result ([3]; cold PlugR does not affect PlugI shift, probe letters rebuilt from the primers and the genome): no binding

Sequence: GTACAGTAAAAGTTTAAGTTTCAAAAGTTAAATTAGAGGGTG / CACCCTCAAGTTTAAGTTTTGAAAGTTAAATTATTACTGTAC [PallugI scram2]
- binding result [3, 4]: no binding

— PMC11980582, “The human microbiome-derived antimicrobial lugdunin self-regulates its biosynthesis by a feed-forward mechanism”
